Results as given in PMC9611092 (Viruses, 2022).

Experiments:
Type in all cases: cell-based
Conditions in all cases: ratio CC50 / IC50
[1] = tested on: SARS-CoV-2 Wuhan lineage B, hCoV-19/Australia/VIC01/2020 (EPI_ISL_406844)
[2] = tested on: SARS-CoV-2 Delta lineage B.1.617.2, hCoV-19/Russia/PSK-2804/2021
[3] = tested on: SARS-CoV-2 Omicron lineage B.1.1.529, hCoV-19/Russia/Moscow171619-031221/2021

In the case of `CC(=O)C1=C(O)C[C@H]2Oc3c(C(C)=O)c(O)c(C)c(O)c3[C@@]2(C)C1=O` [Compound 11, (2R,7R)-4,10-diacetyl-5,11,13-trihydroxy-2,12-dimethyl-8-oxatricyclo [7.4.0.0^2,7]trideca-1(9),4,10,12-tetraen-3-one], the SI [1] is reported as 4.

Compound `CC(=O)c1c(O)c(C)c(O)c2c1O[C@@H]1CC/C(=C(/C)O)C(=O)[C@]21C` [Compound 13, (2R,4E,7R)-10-acetyl-11,13-dihydroxy-4-(1-hydroxyethylidene)-2,12-dimethyl-8-oxatricyclo [7.4.0.0^2,7] trideca-1(13),9,11-trien-3-one] has an SI [2] of 5, an SI [3] of 10 and an SI [1] of 10.

For `CCC1=C(O)C[C@H]2Oc3c(C(C)=O)c(O)c(C)c(O)c3[C@@]2(C)C1=O` [Compound 12, (2R,7R)-10-acetyl-4-ethyl-5,11,13-trihydroxy-2,12-dimethyl-8-oxatricyclo[7.4.0.0^2,7]trideca-1(13),4,9,11-tetraen-3-one], the SI [2] was 3, the SI [3] was 4 and the SI [1] was 3.

With `CC(=O)C1=C(O)C=C2Oc3c(C(=O)CSC(C)C(=O)O)c(O)c(C)c(O)c3[C@@]2(C)C1=O` (mixture of isomers) [Compound 5b, (2S)-2-({2-[(1R)-12-acetyl-3,5,11-trihydroxy-1,4-dimethyl-13-oxo-8-oxatricyclo[7.4.0.0^2,7]trideca-2(7),3,5,9,11-pentaen-6-yl]-2-oxoethyl}sulfanyl)propanoic acid and (2R)-2-({2-[(1R)-12-acetyl-3,5,11-trihydroxy-1,4-dimethyl-13-oxo-8-oxatricyclo [7.4.0.0^2,7]trideca-2(7),3,5,9,11-pentaen-6-yl]-2-oxoethyl}sulfanyl)propanoic acid (1:1)] the SI [1] was 2.

In the case of `CCC(CC)COC(=O)[C@H](C)N[P@](=O)(OC[C@H]1O[C@@](C#N)(c2ccc3c(N)ncnn23)[C@H](O)[C@@H]1O)Oc1ccccc1` [Remdesivir, reference compound], the SI [2] is reported as 338, the SI [3] is reported as 356 and the SI [1] is reported as 186.

Work on `CC(=O)C1=C(O)C=C2Oc3c(C(=O)CO)c(O)c(C)c(O)c3[C@@]2(C)C1=O` [Compound 10, (2R)-4-acetyl-5,11,13-trihydroxy-10-(2-hydroxyacetyl)-2,12-dimethyl-8-oxatricyclo[7.4.0.0^2,7]trideca-1(9),4,6,10,12-pentaen-3-one] yielded an SI [2] of 31, an SI [3] of 17 and an SI [1] of 12.

In the case of `CC(=O)C1=C(O)C=C2Oc3c4c(c(C)c(O)c3[C@@]2(C)C1=O)OCC4=O` [Compound 8], the SI [2] is reported as 2, the SI [3] is reported as 4 and the SI [1] is reported as 4.

With `CC(=O)c1c(O)c(C)c(O)c2c1OC1=CC(=O)c3c(C)noc3[C@@]12C` [Compound 3] the SI [2] was 1.7, the SI [3] was 4.5 and the SI [1] was 1.6.

`CC(=O)C1=C(O)C=C2Oc3c(C(C)=O)c(O)c(C)c(O)c3[C@@]2(C)C1=O` [Compound 1, (R)-(+)-Usnic acid] gave an SI [2] of 7, an SI [3] of 39 and an SI [1] of 13.
